Data as given in PubChem BioAssay AID504761 (Drosophila RNAi Screening Center, 2011)
In all, the deposit lists about 22,000 reagents; shown is an unselected part of those with a known target gene and a result. In the full data, 116 (0.52%) are marked active. 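Calls depend on retest data that are not deposited; infection was ranked per plate without normalising between plates; the unit of the infection score is not given.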 Raw values vary from plate to plate and are shown uncorrected. Entries without a mark were called inactive. Not given: the amount of reagent, the time to read-out.

Aim: 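Fly genes whose silencing reduces dengue virus type 2 infection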 (primary screen)
Cells: D.Mel-2 cells from Drosophila
Knock-down reagent: long dsRNA against Drosophila genes
Challenge: infection with dengue virus type 2; dose and infection time not stated
Read-out: 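Cells stained for dengue envelope protein and imaged; percent of infected cells per well on duplicate plates, ranked by infection, with stained nuclei counted for cell number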
Scale: infection score: higher = more virus-infected cells; cell count: higher = more cells in the well
Active means: 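Very low infection ranking in both replicate wells (chance probability at most 0.065), then a retest showing infection dropped 1.5-fold or more at p below 0.05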
Meaning of the calls: active = confirmed: knock-down lowers infection; inactive = not picked or not confirmed

gene | dsRNA | infection score, replicate 1 | infection score, replicate 2 | cell count, replicate 1 | cell count, replicate 2
Srp19 | DRSC11288 | 0.95 | 0.85 | 5898 | 5776
Srp19 | DRSC24706 | 0.53 | 1.86 | 5251 | 5916
CG14132 | DRSC10136 | 1.28 | 7.93 | 6148 | 6244
Hmgs | DRSC06866 | 15.8 | 18.9 | 4945 | 5754
Hmgs | DRSC28746 | 10.9 | 14.7 | 5982 | 3329
CG3581 | DRSC15499 | 3.54 | 3.83 | 6473 | 6351
Vps4 | DRSC19338 | 0.87 | 3.4 | 3794 | 4230
Vps4 | DRSC25068 | 1.97 | 3.74 | 4006 | 3880
DMAP1 | DRSC06044 | 29.9 | 26 | 4944 | 4277
DMAP1 | DRSC26559 | 13.3 | 13.9 | 5390 | 5040
Hpr1 | DRSC12296 | 17 | 18 | 5896 | 6368
CG6688 | DRSC16094 | 5.1 | 9.83 | 6690 | 5952
CG6688 | DRSC25613 | 9.17 | 1.81 | 5745 | 6136
CG31883 | DRSC02561 | 6.27 | 6.19 | 6410 | 6143
Nnk | DRSC15274 | 4.52 | 1.67 | 5751 | 6361
Nnk | DRSC24564 | 1.23 | 1.7 | 6479 | 6286
CG10700 | DRSC02096 | 3.48 | 7.88 | 6444 | 6798
ItgaPS5 | DRSC04501 | 5.79 | 5.26 | 6600 | 6755
ItgaPS5 | DRSC28842 | 18.6 | 4.82 | 3657 | 1224
CG14883 | DRSC15007 | 2.16 | 5.4 | 6530 | 6309
CG6403 | DRSC16033 | 4.79 | – | 1231 | 297
CG11737 | DRSC14364 | 3.95 | 4.56 | 6685 | 6883

An excerpt from above, limited to “infection score, replicate 1”.
DMAP1 [DRSC26559]: 13.3
Hpr1 [DRSC12296]: 17
CG6688 [DRSC16094]: 5.1
CG6688 [DRSC25613]: 9.17
CG31883 [DRSC02561]: 6.27
Nnk [DRSC15274]: 4.52

Continued:
gene | dsRNA | infection score, replicate 1 | infection score, replicate 2 | cell count, replicate 1 | cell count, replicate 2
CG1662 | DRSC19754 | 8.23 | 5.75 | 6934 | 6710
TORIP | DRSC10104 | 8.26 | 16.3 | 6329 | 6512
sad | DRSC16630 | 6.22 | 7.13 | 6354 | 6547
sad | DRSC28569 | 3.78 | 10.3 | 1589 | 3910
CG13437 | DRSC06397 | 2.93 | 3 | 6241 | 6039
Rnf11 | DRSC21574 | 3.55 | 4.72 | 6175 | 6800
Rnf11 | DRSC27053 | 5.54 | 12.2 | 6323 | 6587
RPA3 | DRSC19658 | 6.32 | 4.66 | 5787 | 5756
CG8314 | DRSC07144 | – | 2.7 | 353 | 592
CG32564 | DRSC19933 | 10.9 | 1.79 | 6188 | 6921
CG32564 | DRSC25202 | 3.59 | 6.13 | 7110 | 6412
CG18131 | DRSC22983 | 1.98 | 10 | 5923 | 6841
Chchd2 | DRSC19931 | 1.58 | 4.53 | 5933 | 6273
Chchd2 | DRSC29551 | 29.4 | 3 | 6098 | 566
DCTN1-p150 | DRSC11175 | 5.86 | 8.05 | 6295 | 6208
DCTN1-p150 | DRSC23441 | 2.26 | 1.15 | 5698 | 4074
Abcd1 | DRSC17157 | 6.2 | 0.96 | 5998 | 6362
